Data: PMC5485444 (Antibiotics, 2017)

Test: pH-dependent drug release study from insoluble cyclodextrin polymer disks
Settings: pH 5.0 vs pH 7.4, approximately 40 days

CC[C@H]1OC(=O)[C@H](C)[C@@H](OC2C[C@@](C)(OC)[C@@H](O)[C@H](C)O2)[C@H](C)[C@@H](OC2O[C@H](C)C[C@H](N(C)C)[C@H]2O)[C@](C)(O)C[C@@H](C)/C(=N\NC(=O)C23CC4CC(CC(C4)C2)C3)[C@H](C)[C@@H](O)[C@]1(C)O (stereo partly shown) [AD-EM, adamantane-modified erythromycin]
Release profile in acidic vs neutral conditions: slightly increased release profile in acidic conditions compared to neutral conditions
